Anti-infective test results gathered from many reports (values: NIAID ChemDB through PubChem).

Shared fields: tests in culture; agent: Mycobacterium avium intracellulare

An empty or dashed field is not shown. MIC50, MIC90 and the like: level of inhibition, or share of isolates inhibited. Inhibition is in % at the dose shown (toxicity tests: loss of growth or viability). Lines come from different laboratories, so protocols vary.

smiles,strain or isolate,endpoint,dose,value
COc1c(N2CCNC(C)C2)c(F)cc2c(=O)c(C(=O)O)cn(C3CC3)c12,-,MIC,-,0.9 µg/mL
CCC(C)N1CCN(c2cc(=O)c3nc4c(oc3c2)c2c(=O)c3c(O)c(C)c5c(c34)=C(O)[C@@](C)(O/C=C/[C@H](OC)[C@@H](C)[C@@H](OC(C)=O)[C@H](C)[C@H](O)[C@H](C)[C@@H](O)[C@@H](C)/C=C/C=C(/C)C(=O)N2)O5)CC1,31 strains,MIC90,-,0.2 µg/mL
CO[C@H]1/C=C/O[C@@]2(C)Oc3c(C)c(O)c4c(O)c(c5c(c4c3C2=O)NC2(CCN(CC(C)C)CC2)N=5)=NC(=O)/C(C)=C\C=C\[C@H](C)[C@H](O)[C@@H](C)[C@@H](O)[C@@H](C)[C@H](OC(C)=O)[C@@H]1C,CDC1,MIC,-,0.075 µg/mL
CCn1nc(C(=O)O)c(=O)c2cc3c(cc21)OCO3,-,MIC,-,>250 µg/mL
NCC[C@H](O)C(=O)N[C@@H]1C[C@H](N)[C@@H](O[C@H]2O[C@H](CN)[C@@H](O)[C@H](O)[C@H]2O)[C@H](O)[C@H]1O[C@H]1O[C@H](CO)[C@@H](O)[C@H](N)[C@H]1O,-,MBC,-,8 µg/mL
CO[C@H]1/C=C/O[C@@]2(C)Oc3c(C)c(O)c4c(=O)c(c5oc6cc(N7CCN(CC(C)C)CC7)cc(=O)c6nc5c4c3=C2O)NC(=O)/C(C)=C\C=C\[C@H](C)[C@H](O)[C@@H](C)[C@@H](O)[C@@H](C)[C@H](OC(C)=O)[C@@H]1C,20 strains,MIC50,-,≤0.05 µg/mL
CCn1cc(C(=O)O)c(=O)c2cc(F)c(N3CCNCC3)nc21,16 isolates,MIC90,-,>100 µg/mL
CO[C@H]1/C=C/O[C@@]2(C)Oc3c(C)c(O)c4c(O)c(c(/C=N/N5CCN(C)CC5)c(O)c4c3C2=O)NC(=O)/C(C)=C\C=C\[C@H](C)[C@H](O)[C@@H](C)[C@@H](O)[C@@H](C)[C@H](OC(C)=O)[C@@H]1C,17 isolates,MIC90,-,0.5 µg/mL
CO[C@H]1/C=C/O[C@@]2(C)Oc3c(C)c(O)c4c(O)c(c5c(c4c3C2=O)NC2(CCN(CC(C)C)CC2)N=5)=NC(=O)/C(C)=C\C=C\[C@H](C)[C@H](O)[C@@H](C)[C@@H](O)[C@@H](C)[C@H](OC(C)=O)[C@@H]1C,20 isolates,MIC90,-,0.5 µg/mL
CCn1cc(C(=O)O)c(=O)c2cc(F)c(N3CCNC(C)C3)c(F)c21,16 isolates,MIC50,-,100 µg/mL
CO[C@H]1/C=C/O[C@@]2(C)Oc3c(C)c(O)c4c(O)c(c(/C=N/N5CCN(C)CC5)c(O)c4c3C2=O)NC(=O)/C(C)=C\C=C\[C@H](C)[C@H](O)[C@@H](C)[C@@H](O)[C@@H](C)[C@H](OC(C)=O)[C@@H]1C,20 strains,MIC90,-,6.25 µg/mL
CCc1cc(C(N)=S)ccn1,Serovar 8,inhibition,10 µg/mL,100%
NNC(=O)c1ccncc1,-,MBC,-,>32 µg/mL
CO[C@H]1/C=C/O[C@@]2(C)Oc3c(C)c(O)c4c(=O)c(c5oc6cc(N7CCN(CC(C)C)CC7)cc(=O)c6nc5c4c3=C2O)NC(=O)/C(C)=C\C=C\[C@H](C)[C@H](O)[C@@H](C)[C@@H](O)[C@@H](C)[C@H](OC(C)=O)[C@@H]1C,N-260,MBC,-,1 µg/mL
CCn1cc(C(=O)O)c(=O)c2cc3c(cc21)OCO3,-,MIC,-,449.3 µg/mL
CN[C@@H]1[C@H](O[C@H]2[C@H](O[C@H]3[C@H](O)[C@@H](O)[C@H](N=C(N)N)[C@@H](O)[C@@H]3N=C(N)N)O[C@@H](C)[C@]2(O)C=O)O[C@@H](CO)[C@H](O)[C@H]1O,-,MBC,-,8 µg/mL
CC1COc2c(C3(N)CC3)c(F)cc3c(=O)c(C(=O)O)cn1c23,16 isolates,MIC50,-,>100 µg/mL
CC[C@@H](CO)NCCN[C@@H](CC)CO,-,MBC,-,>32 µg/mL
CC1COc2c(N3CCN(C)CC3)c(F)cc3c(=O)c(C(=O)O)cn1c23,95 isolates,MIC90,-,8 µg/mL
C[C@H]1COc2c(N3CCN(C)CC3)c(F)cc3c(=O)c(C(=O)O)cn1c23,16 isolates,MIC90,-,50 µg/mL
CCCN1CCN(c2cc(=O)c3nc4c(oc3c2)c2c(=O)c3c(O)c(C)c5c(c34)=C(O)[C@@](C)(O/C=C/[C@H](OC)[C@@H](C)[C@@H](OC(C)=O)[C@H](C)[C@H](O)[C@H](C)[C@@H](O)[C@@H](C)/C=C/C=C(/C)C(=O)N2)O5)CC1,31 strains,MIC50,-,0.05 µg/mL
CO[C@H]1[C@@H](O)[C@H](n2ccc(=O)[nH]c2=O)O[C@@H]1[C@@H](O[C@H]1OC(C(=O)N[C@H]2CCC[C@@H](C)NC2=O)=C[C@H](O)[C@@H]1O)C(N)=O,17 isolates,MIC50,-,2 µg/mL
NC[C@H]1O[C@H](O[C@H]2[C@H](O)[C@@H](O[C@H]3O[C@H](CO)[C@@H](O)[C@H](N)[C@H]3O)[C@H](N)C[C@@H]2N)[C@H](O)[C@@H](O)[C@@H]1O,N-809 (HIV-),MIC,-,2 µg/mL
CCn1cc(C(=O)O)c(=O)c2cc(F)c(N3CCNCC3)cc21,-,MIC,-,11.4 µg/mL
N[C@@H]1CN(c2c(F)cc3c(=O)c(C(=O)O)cn([C@@H]4C[C@@H]4F)c3c2Cl)CC12CC2,16 isolates,MIC50,-,12.5 µg/mL
CO[C@H]1/C=C/O[C@@]2(C)Oc3c(C)c(O)c4c(O)c(c(/C=N/N5CCN(C)CC5)c(O)c4c3C2=O)NC(=O)/C(C)=C\C=C\[C@H](C)[C@H](O)[C@@H](C)[C@@H](O)[C@@H](C)[C@H](OC(C)=O)[C@@H]1C,CIPT 140310021,MIC,-,0.05 µg/mL
CCn1cc(C(=O)O)c(=O)c2cnc(N3CCCC3)nc21,-,MIC,-,>250 µg/mL

The first 2 rows once more:

smiles	strain or isolate	endpoint	dose	value
COc1c(N2CCNC(C)C2)c(F)cc2c(=O)c(C(=O)O)cn(C3CC3)c12	-	MIC	-	0.9 µg/mL
CCC(C)N1CCN(c2cc(=O)c3nc4c(oc3c2)c2c(=O)c3c(O)c(C)c5c(c34)=C(O)[C@@](C)(O/C=C/[C@H](OC)[C@@H](C)[C@@H](OC(C)=O)[C@H](C)[C@H](O)[C@H](C)[C@@H](O)[C@@H](C)/C=C/C=C(/C)C(=O)N2)O5)CC1	31 strains	MIC90	-	0.2 µg/mL